From patent publication US9029526B2, “Nucleic acid molecules, polypeptides, antibodies and compositions for treating and detecting influenza virus infection” (dated 2015)

System: A/Texas/1/77 (H3N2)
Test: Inhibition of mouse infection, lung virus titer, A/Texas/1/77
Conditions: intra-nasal

Q: With `CCOC(=O)C1=C[C@@H](OC(CC)CC)[C@H](NC(C)=O)[C@@H](N)C1` as the compound, how does the “Protection (%)” value (administered once with the virus) read?
A: 76.03%

Q: And the “Δlog EID50” value (administered once, together with the virus, Oseltamivir 20 μg/mouse)?
A: 0.62 log EID50

Q: What about the Fold reduction (virus burden, administered once with the virus) of the same compound?
A: 4.17 fold
